A mixed list of measured activities; the numbers were collected in NIAID ChemDB.

Common to all: tests in culture; organism: Candida albicans; endpoint: EC50

Conditions beyond the fields shown may differ between rows.

{"structure": "C[C@H]1[C@H](O)[C@@H](C)/C=C/C=C/C=C/C=C/C=C/C=C/C=C/[C@H](O[C@@H]2O[C@H](C)[C@@H](O)[C@H](N)[C@@H]2O)C[C@@H]2O[C@](O)(C[C@@H](O)C[C@@H](O)CC[C@H](O)[C@@H](O)C[C@@H](O)CC(=O)O[C@H]1C)C[C@H](O)[C@H]2C(=O)O", "read by": "broth dilution", "strain or isolate": "ATCC 18804", "result": "1 µg/mL"}
{"structure": "C[C@H]1OO[C@@H](CC(=O)OCC2C3CC4CC(C3)CC2C4)[C@H]2O[C@H]21", "result": "250–500 µM"}
{"structure": "CN(C)CC/C=C1/c2ccccc2Sc2ccc(Cl)cc21", "read by": "broth dilution", "result": "64 µg/mL"}
{"structure": "COc1ccc2cc(C3=CN4CCC3CC4)ccc2c1", "read by": "broth dilution", "strain or isolate": "ATCC 10231", "result": ">16 µg/mL"}
{"structure": "C=C1C[C@H](N)[C@@H]1C(=O)O", "result": ">256 µg/mL"}
{"structure": "CCN1C2=NC[C@H](Cc3ccccc3)N2C[C@H]1C", "strain or isolate": "ATCC 10231", "result": ">250 µg/mL"}
{"structure": "N[C@H]1CCC[C@H]1P(=O)(O)O", "result": ">256 µg/mL"}
{"structure": "[CH3][Sn]1([CH3])[O]C(=O)c2ccccc2NCc2ccccc2[O]1", "read by": "broth dilution", "strain or isolate": "ATCC 18804", "result": "20 µg/mL"}
{"structure": "OC(Cn1cncn1)(Cn1cncn1)c1ccc(F)cc1F", "read by": "agar diffusion / agar", "strain or isolate": "75 strains", "result": "<15 µg/mL"}
{"structure": "COc1ccc(Sc2n[nH]c(=S)s2)nn1", "read by": "resazurin", "strain or isolate": "ATCC 90028", "result": ">50 µg/mL"}
{"structure": "C1=C(c2cc3ccccc3o2)C2CCN1CC2", "read by": "broth dilution", "strain or isolate": "ATCC 10231", "result": ">16 µg/mL"}
{"structure": "COc1cc(O)c2c(=O)oc3c(c2c1)C(C)(O)CC3=O", "read by": "resazurin", "strain or isolate": "SC5314", "result": "198 µM"}
{"structure": "CCN1C2=NC[C@H](Cc3ccccc3)N2C[C@H]1CCCN=C(N)N", "strain or isolate": "ATCC 10231", "result": ">250 µg/mL"}
{"structure": "COc1c2occc2cc2ccc(=O)oc12", "read by": "broth dilution", "strain or isolate": "105", "result": "<400 µg/mL"}
{"structure": "C1C2CC3CC1CC(C2)C3[C@@]12COOC[C@@H]1O2", "result": "125–250 µM"}
{"structure": "C1=C(c2cnc3ccccc3c2)C2CCN1CC2", "read by": "broth dilution", "strain or isolate": "ATCC 10231", "result": ">16 µg/mL"}
{"structure": "C=C1C[C@@H](C(=O)O)[C@@H](N)C1C", "result": "64 µg/mL"}
{"structure": "CC(C)(C)C1CCC(CN2C3=NC[C@@H](C4CCCCC4)N3C[C@@H]2CC2CCCCC2)CC1", "strain or isolate": "ATCC 10231", "result": "3.5 µg/mL"}
{"structure": "C[C@H]1OO[C@@H](CC(=O)OC2C3CC4CC(C3)CC2C4)[C@@H]2O[C@@H]21", "result": "250–500 µM"}
{"structure": "C[C@@H]1[C@H](O)[C@@H](C)/C=C/C=C/C=C/C=C/C=C/C=C/C=C/[C@H](O[C@@H]2O[C@H](C)[C@@H](O)[C@H](N)[C@@H]2O)C[C@@H]2O[C@](O)(C[C@@H](O)C[C@@H](O)[C@H](O)CC[C@@H](O)C[C@@H](O)CC(=O)O[C@H]1C)C[C@H](O)[C@H]2C(=O)O", "read by": "broth dilution", "strain or isolate": "SC5314", "result": "0.28 µg/mL"}
{"structure": "Cc1cc(C2CCCCC2)n(O)c(=O)c1", "read by": "agar diffusion / agar", "strain or isolate": "75 strains", "result": "<10 µg/mL"}
{"structure": "C1=C(c2ccc(OCc3ccccc3)cc2)C2CCN1CC2", "read by": "broth dilution", "strain or isolate": "ATCC 10231", "result": "1 µg/mL"}
{"structure": "COc1cc(O)c2c(c1)C1=C[C@H](O)[C@@H](O)C[C@]1(C)OC2=O", "read by": "resazurin", "strain or isolate": "SC5314", "result": ">250 µM"}
{"structure": "O=Cc1cccc(O)c1O", "read by": "broth dilution / turbidity", "strain or isolate": "PYCC 3436", "result": "0.01 µM"}
{"structure": "CC(=O)N1CCN(c2ccc(OC[C@H]3CO[C@](Cn4ccnc4)(c4ccc(Cl)cc4Cl)O3)cc2)CC1", "read by": "agar diffusion / agar", "strain or isolate": "75 strains", "result": ">15 µg/mL"}
{"structure": "c1ccc(C[C@H]2CN=C3N(CCC45CC6CC(CC(C6)C4)C5)[C@@H](Cc4ccccc4)CN32)cc1", "strain or isolate": "ATCC 10231", "result": "24.9 µg/mL"}
{"structure": "C[C@@H]1C=CC(CC(=O)OCC2[C@H]3C[C@@H]4C[C@H](C3)C(Br)[C@H]2C4)OO1", "result": "250–500 µM"}
{"structure": "CC(C)(C)[Si](C)(C)Oc1ccc(C2=CN3CCC2CC3)cc1", "read by": "broth dilution", "strain or isolate": "ATCC 10231", "result": ">16 µg/mL"}
{"structure": "C1CCC([C@H]2CN3C(=NC[C@@H]3C3CCCCC3)N2CCC23CC4CC(CC(C4)C2)C3)CC1", "strain or isolate": "ATCC 10231", "result": "18.6 µg/mL"}
{"structure": "Cc1cc(O)cc2c(=O)oc(C[C@@H](C)O)cc12", "read by": "resazurin", "strain or isolate": "SC5314", "result": "193 µM"}
{"structure": "N[C@H]1CC=CC[C@H]1C(=O)O", "result": "128 µg/mL"}
{"structure": "COc1cc(O)cc(-c2cc(O)c(O)cc2C)c1", "read by": "resazurin", "strain or isolate": "SC5314", "result": ">250 µM"}
{"structure": "O=C(O)/C=C/c1ccccc1", "read by": "broth dilution / turbidity", "strain or isolate": "ATCC 90028", "result": "0.64 µM"}
{"structure": "C1C2CC3CC1CC(C2)C3[C@H]1OO[C@@H](C2C3CC4CC(C3)CC2C4)[C@@H]2O[C@@H]21", "result": ">1000 µM"}
{"structure": "S=c1[nH]nc(Sc2ccc(Cl)nn2)s1", "read by": "resazurin", "strain or isolate": "ATCC 90028", "result": ">50 µg/mL"}
{"structure": "C=C1C[C@H](NCC)[C@H](C(=O)O)C1", "result": "128 µg/mL"}
{"structure": "C1CCC([C@@H]2CN3C(=NC[C@H]3C3CCCCC3)N2CCC23CC4CC(CC(C4)C2)C3)CC1", "strain or isolate": "ATCC 10231", "result": "23.1 µg/mL"}
{"structure": "O=C1c2ccccc2C(=O)N1CSc1n[nH]c(=S)s1", "read by": "resazurin", "strain or isolate": "ATCC 90028", "result": ">50 µg/mL"}

The last 4 rows once more:

structure | read by | strain or isolate | result
S=c1[nH]nc(Sc2ccc(Cl)nn2)s1 | resazurin | ATCC 90028 | >50 µg/mL
C=C1C[C@H](NCC)[C@H](C(=O)O)C1 | - | - | 128 µg/mL
C1CCC([C@@H]2CN3C(=NC[C@H]3C3CCCCC3)N2CCC23CC4CC(CC(C4)C2)C3)CC1 | - | ATCC 10231 | 23.1 µg/mL
O=C1c2ccccc2C(=O)N1CSc1n[nH]c(=S)s1 | resazurin | ATCC 90028 | >50 µg/mL

An empty or dashed field is not shown. a–b is a range or a potency band. ECn is the concentration giving n% inhibition of infection, replication or growth.